Legend:
[1] = target: T1, Dimer of Gag-Pol polyprotein [501-599,Q508K,L534I,L564I,C568A,C596A] (Human immunodeficiency virus 1, UniProt P03367, C568A/C596A/L534I/L564I/Q508K); assay: Protease Inhibition Assay; settings: pH 5; 22 °C
T1 construct: 501-599
Text: (§1) The Ki values were obtained from the IC50 values estimated from an inhibitor dose-response curve with the spectroscopic assay and the chromogenic substrate.

[2] = target: T2, Dimer of Gag-Pol polyprotein [501-599,Q508K,L534I,L564I,C568A,C596A,G574S] (Human immunodeficiency virus 1, UniProt P03367, C568A/C596A/G574S/L534I/L564I/Q508K); assay: Protease Inhibition Assay; settings: pH 5; 22 °C
T2 construct: 501-599
Text: as §1

For `CCCC[C@@H](CN[C@@H](CCCC)C(=O)N[C@@H](CCC(N)=O)C(=O)N[C@@H](CCCNC(=N)N)C(N)=O)NC(=O)[C@@H](NC(=O)[C@@H](NC(C)=O)[C@@H](C)O)[C@@H](C)CC` [N-1465], the Ki [1] was 2170 nM and the Ki [2] was 3300 nM.

— BindingDB's records for doi:10.1016/j.jmb.2005.09.095 (Georgia State University, 2005)
